Data taken from publication PMC3278406 (PLoS ONE, 2012).
Where “and” joins values, the source holds several entries; their conditions need not be identical. Equal values may be shown once.

Biological target: Stx1 toxoid (Bacteriophage H30, UniProt P69178)

Globotetraosyl ceramide was tested, and the Kd was 3.9 nM.
For “Globotriaosyl ceramide, Ceramide trihexoside”, the Kd was 4.2 nM and 6.4 nM.
